Measurements as given in ChEMBL document CHEMBL1133572, “Protease inhibitors: current status and future prospects” (J Med Chem, 2000).

Target: Human immunodeficiency virus type 1 protease (Human immunodeficiency virus 1, UniProt Q72874)
Assay: Binding affinity against ritonavir-resistant strains.

SMILES: Cc1cccc(C)c1OCC(=O)N[C@@H](Cc1ccccc1)[C@@H](O)C[C@H](Cc1ccccc1)NC(=O)[C@H](C(C)C)N1CCCNC1=O [LOPINAVIR]
- Ki: 4 pM
